pIC50: −log10 of the molar value.
Biological target: C-C chemokine receptor type 5 (Homo sapiens, UniProt P51681)
Experiment: Antagonist activity at CCR5 (unknown origin) expressed in human HOS cells co-expressing HIV-1 FITC-gp120 Bal assessed inhibition of CD4 dependent gp120 Bal binding to CCR5 by western blot analysis

Chains of the proteins cited; added tags and fusions are not shown.
UniProt P51681, whole entry: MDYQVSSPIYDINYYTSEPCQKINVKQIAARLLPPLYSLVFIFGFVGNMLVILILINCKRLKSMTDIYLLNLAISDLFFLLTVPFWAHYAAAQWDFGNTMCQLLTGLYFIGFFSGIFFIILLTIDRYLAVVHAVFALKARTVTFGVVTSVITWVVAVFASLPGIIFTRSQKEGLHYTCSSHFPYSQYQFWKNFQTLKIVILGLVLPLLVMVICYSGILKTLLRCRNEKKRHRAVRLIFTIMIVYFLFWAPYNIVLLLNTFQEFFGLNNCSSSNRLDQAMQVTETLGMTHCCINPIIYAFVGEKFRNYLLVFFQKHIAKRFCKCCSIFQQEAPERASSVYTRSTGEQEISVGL

C[C@@H](N)C(=O)N[C@@H](CO)C(=O)N[C@H](C(=O)N[C@H](C(=O)N[C@H](C(=O)N[C@@H](CC(N)=O)C(=O)N[C@@H](Cc1ccc(O)cc1)C(=O)N[C@H](C(N)=O)[C@@H](C)O)[C@@H](C)O)[C@@H](C)O)[C@@H](C)O
pIC50: 10.22

Source: ChEMBL document CHEMBL5230124, “Advances of CCR5 antagonists: From small molecules to macromolecules” (Eur J Med Chem, 2020)
